This data set has as its system HCMV. Briefly: Anti-CMV activity assay, inhibition of HCMV replication in infected HFFs. The format is cell-based, human Cytomegalovirus (HCMV). To be noted: CC50 noninfected HFFs / EC50 infected HFFs. The protocol: It has been observed that the infection of human foreskin fibroblasts (HFF) cells with HCMV causes an up regulation of the α3-isoform of the Na^+/K^+-Pump. Therefore the inhibition of HCMV replication by the compounds described herein was tested using procedure described by Cai, H. et al., in Med. Chem. Lett. 2014, 5, 395-399, which is incorporated by reference in its entirety. Generally, inhibition of Towne HCMV: pp28-luciferase activity was measured in cell lysates of HCMV-infected HFFs collected at 72 h post infection (hpi). Virus DNA yield in supernatants of HCMV-infected cells collected at 96 hpi was measured by real-time PCR. Plaque reduction assay performed at 8 days postinfection. Data represent mean values (±SD) of triplicate determinations from three independent experiments.
Inhibition of TB40 HCMV: HFFs were infected with HCMV-TB40 strain at MOI of 1 pfu/cell and treated with compounds listed in Tables 1-3 for 3 days.
The glycosylated cardiotonic steroid compounds were tested for their anti-cytomegalovirus (CMV) activity. Specifically, the compounds were tested for the ability to inhibit HCMV replication. For each compound, the anti-HCMV activity in infected HFFs was expressed as EC50, whereas cytotoxicity in noninfected HFFs was expressed as CC50. Selectivity index (SI), defined as CC50/EC50, was calculated for each compound.

With α-D-Amicetose, the “SI (selectivity index, CC50/EC50)” value was found to be 29.46. With α-D-Rhamnose, the “SI (selectivity index, CC50/EC50)” value came to 85.52.

The record behind these values is US20160176914A1, “GLYCOSYLATED CARDIOTONIC STEROIDS” (priority 2013, published 2016).
